Anti-infective test results gathered from many reports (values: NIAID ChemDB through PubChem).

Common to all: tests in culture; species: Mycobacterium tuberculosis

Percent inhibition refers to the dose given; in toxicity tests it is the harm to the cells. Rows are shuffled and stem from different studies. An empty or dashed field is not shown. ECn is the concentration giving n% inhibition of infection, replication or growth. MIC bound comes from a single tested concentration. Two numbers with a dash give a range or band. MIC50, MIC90 and the like: level of inhibition, or share of isolates inhibited.

smiles,mutations,method,read-out,tested at,strain or isolate,value
CC(C)CCOc1ccc(NC(=S)Nc2ccc(OCCC(C)C)cc2)cc1,,,MIC,,Isolates ethionamide/thioacetazone-sensitive,0.5–5 µg/mL
OC(c1cc(-c2ccc(Cl)c(Cl)c2)nc2ccccc12)C1CCCCN1,,resazurin,inhibition,6.25 µg/mL,H37Rv,100%
CN[C@@H]1[C@H](O[C@H]2[C@H](O[C@H]3[C@H](O)[C@@H](O)[C@H](N=C(N)N)[C@@H](O)[C@@H]3N=C(N)N)O[C@@H](C)[C@]2(O)C=O)O[C@@H](CO)[C@H](O)[C@H]1O,MDR,broth dilution,MIC99,,8666/2010,>32 µM
CN[C@H]1Cc2c[nH]c3cccc(c23)[C@]12C=C(C)C(=O)O2,,BACTEC,MIC,,H37Rv,≥12.8 µg/mL
Cc1ccccc1-c1nn(-c2ccccc2)cc1/C=C/c1nc2sccn2c(=O)c1-c1ccc(C#N)cc1,,colony count,MIC,,H37Rv,2.6 µg/mL
CCN(CCO)CCNc1ccc(C)c2sc3ccccc3c(=O)c12,,BACTEC,inhibition,12.5 µg/mL,H37Rv,100%
N#Cc1ccn2c(-c3ccccc3)c(-c3ccccc3)c(C(=O)c3ccccc3)c2c1,,,EC50,,H37Rv,>6.25 µg/mL
Cc1ccc2nc(-c3nc4ncccc4n3C)sc2c1,,,MIC,,H37Rv,25 µg/mL
COC(=O)c1cc(NC(=O)OCc2ccccc2)nn1C,,resazurin,MIC bound,,H37Rv,>6.25 µg/mL
O=C(NC1C[C@@H]2CN(c3ccc(N4C[C@H](Cn5ccnn5)OC4=O)cc3F)C[C@@H]2C1)c1ccc([N+](=O)[O-])cc1,,broth dilution / resazurin,MIC,,H37Rv,1 µg/mL
Oc1cc(Cl)ccc1Oc1ccc(Cn2ccnn2)cc1Cl,InhA overexpression,MTT,MIC,,mc4914,100 µg/mL
CC(=O)NC[C@H]1CN(c2ccc(N3C[C@H]4CC(NC(N)=S)C[C@H]4C3)c(F)c2)C(=O)O1,,broth dilution / resazurin,MIC,,H37Rv,0.5 µg/mL
C=CCNC(=S)/N=C/C(C(=O)Nc1ccc(Cl)cc1)=C(\C)O,,resazurin,MIC bound,,H37Rv,>6.25 µg/mL
COc1ccc(C(O)c2c(-c3ccccc3)c(-c3ccccc3)n3ccc(C#N)cc23)cc1,,,EC50,,H37Rv,<6.25 µg/mL
CNCCOc1ccc(C(c2ccc(OC)cc2)c2cccnc2)cc1,,,MIC,,H37Rv,>25 µg/mL
Cc1nc2c3c(ncn2n1)Oc1c(c(-c2ccccc2)nn1-c1ccccc1)C3c1ccc(Cl)cc1,,resazurin,MIC bound,,H37Rv,>6.25 µg/mL
CC(C)N=c1cc2n(-c3ccc(Cl)cc3)c3ccccc3nc-2cc1Nc1ccc(Cl)cc1,MDR,broth dilution,MIC99,,Praha 1,0.5 µM
CCC(Sc1ncnc2c1cnn2COCC(O)CO)C(N)=O,,,MIC,,H37Rv,>6.25 µg/mL
C=CCc1cccc2c1OC(CN1CCN(CC3COc4cccc(CC=C)c4O3)CC1)CO2.C=CCc1cccc2c1OC(CN1CCN(CC3COc4cccc(CC=C)c4O3)CC1)CO2,,BACTEC,MIC,,H37Rv,>12.5 µg/mL
Cn1c(-c2nc3ccccc3s2)nc2ncccc21,,,MIC,,H37Rv,25 µg/mL
COc1ccc2oc(=O)n(-c3ccc([N+](=O)[O-])cc3)c(=O)c2c1,,,MIC,,CNCTC MY331/88,32 µM
CCCCCCNC(=O)c1ccc(Oc2ccc(Cl)cc2Cl)c(O)c1,,MTT,MIC,,H37Rv,>100 µg/mL
CCN(CC)Cc1c2c(O)c3c(O)c(C)c4c(c3c1O)C(=O)[C@@](C)(O/C=C/[C@H](OC)[C@@H](C)[C@@H](OC(C)=O)[C@H](C)[C@H](O)[C@H](C)[C@@H](O)[C@@H](C)/C=C/C=C(/C)C(=O)N2)O4,,,MIC,,,0.18 µg/mL
Cc1c2oc3c(C)ccc(C(=O)NCCN4CCCC4)c3nc-2c(C(=O)NCCN2CCCC2)c(N)c1=O,,BACTEC,inhibition,12.5 µg/mL,H37Rv,33%
COc1ccc2c(=O)n(-c3ccc(C(F)(F)F)cc3)c(=O)oc2c1,,,MIC,,CNCTC MY331/88,32 µM
Cc1ccc(NC(=O)C(=O)C2C(=O)N(c3ccccc3)N=C2N)cc1C,,resazurin,MIC bound,,H37Rv,>6.25 µg/mL
COC1=NC2=CC(=O)c3c(c(O)c(C)c4c3C(=O)[C@@](C)(O/C=C/[C@H](OC)[C@@H](C)[C@@H](OC(C)=O)[C@H](C)[C@H](O)[C@H](C)[C@@H](O)[C@@H](C)/C=C/C=C\1C)O4)C2=O,,,MIC,,,>10 µg/mL
CN[C@@H]1[C@@H](O)[C@@H](O[C@@H]2[C@@H](O)[C@H](O[C@H]3O[C@H](CN)CC[C@H]3N)[C@@H](N)C[C@H]2N)OC[C@]1(C)O,MDR,broth dilution,MIC99,,Praha 1,1 µM
CN(C)CCCN1c2ccccc2Sc2ccc(Cl)cc21,,,MIC,,ST. 5,12.5 µg/mL
O=C(NNS(=O)(=O)c1ccc(NC2=CC(=O)c3ccccc3C2=O)cc1)c1ccccc1O,,,MIC,,,0.12–0.24 µg/mL
CO[C@H]1/C=C/O[C@@]2(C)Oc3c(C)c(O)c4c(O)c(cc(OCC(=O)O)c4c3C2=O)NC(=O)/C(C)=C\C=C\[C@H](C)[C@H](O)[C@@H](C)[C@@H](O)[C@@H](C)[C@H](OC(C)=O)[C@@H]1C,,,MIC,,,1000 µg/mL
Nc1ccc(S(=O)(=O)c2ccc(NC3=CC(=O)c4ccccc4C3=O)cc2)cc1,,,MIC,,,1.5 µg/mL
COc1cc(C(=O)N=Nc2c(O)[nH]c3ccc(Br)cc23)cc(OC)c1OC,,BACTEC,MIC bound,,H37Rv,>12.5 µg/mL
CO[C@H]1/C=C/O[C@@]2(C)Oc3c(C)c(O)c4c(O)c(c(/C=N/N5CCN(C)CC5)c(O)c4c3C2=O)NC(=O)/C(C)=C\C=C\[C@H](C)[C@H](O)[C@@H](C)[C@@H](O)[C@@H](C)[C@H](OC(C)=O)[C@@H]1C,MDR,broth dilution,MIC99,,Praha 1,>8 µM
CN(C)CC/C=C1\c2ccccc2Sc2ccc(Cl)cc21,,,MIC,,ST. 5,6.25 µg/mL
N#Cc1ccn2c(-c3ccccc3)c(-c3ccccc3)c(C=O)c2c1,,,EC50,,H37Rv,>6.25 µg/mL
Cc1cc(C(=O)NCc2ccc(Oc3ccc(Cl)cc3Cl)c(O)c2)no1,InhA overexpression,MTT,MIC,,mc4914,>80 µg/mL
CCOC(=O)c1ccc(-n2c(=O)oc3ccc(OC)cc3c2=O)cc1,,,MIC,,CNCTC MY331/88,16 µM
CCC[CH2][Sn]1([CH2]CCC)[O]N=C(c2ccccc2)C(c2ccccc2)[O]1,,BACTEC,inhibition,128 µg/mL,H37Rv,99%
CO[C@H]1/C=C/O[C@@]2(C)Oc3c(C)c(O)c4c(c3C2=O)C(=O)C=C(NC(=O)/C(C)=C\C=C\C(C)(O)C(=O)[C@@H](C)[C@@H](O)[C@@H](C)[C@H](OC(C)=O)[C@@H]1C)C4=O,,,MIC,,,>10 µg/mL
O=C(NNS(=O)(=O)c1ccc(NC2=CC(=O)c3ccccc3C2=O)cc1)c1ccccc1,,,MIC,,,0.12 µg/mL
COc1ccc2c(=O)n(-c3cccc(F)c3)c(=O)oc2c1,,,MIC,,CNCTC MY331/88,8 µM
COc1cc(/C=N/NC(=O)c2nc3ncccc3n2C)ccc1O,,,MIC,,H37Rv,250 µg/mL
O=C(Nc1ccc(C(F)(F)F)c([N+](=O)[O-])c1)c1ccc(C(=O)Nc2ccc(C(F)(F)F)c([N+](=O)[O-])c2)cc1,,BACTEC,MIC bound,,H37Rv,>12.5 µg/mL
NNC(=O)c1ccncc1,MDR,broth dilution,MIC99,,Praha 4,16 µM
O=C(Nc1ccccc1)c1ccc(Oc2ccc(Cl)cc2Cl)c(O)c1,,MTT,MIC,,H37Rv,>100 µg/mL
CC[C@@H](CO)NCCN[C@@H](CC)CO,MDR,broth dilution,MIC99,,Praha 131,32 µM
N#Cc1ccn2c(-c3ccccc3)c(-c3ccccc3)c(-c3ccccc3)c2c1,,,EC50,,H37Rv,>6.25 µg/mL
Cc1ccc(NC(=O)C(=S)Nc2ccc(C)cc2)cc1,,,MIC,,,37 µM
CO[C@H]1/C=C/O[C@@]2(C)Oc3c(C)c(O)c4c(c3C2=O)C2(C=C(NC(=O)/C(C)=C\C=C\[C@H](C)[C@H](O)[C@@H](C)[C@@H](O)[C@@H](C)[C@H](OC(C)=O)[C@@H]1C)C4=O)OCC(=O)O2,,,MIC,,,75 µg/mL
COc1ccc(-c2coc3c4c(ccc3c2=O)OC(C)(C)C=C4)cc1OC,,BACTEC,inhibition,12.5 µg/mL,H37Rv,0%
C/C(=N\NC(=O)c1ccncc1)c1cc2ccccc2oc1=O,,broth dilution,MIC,,H37Rv,50 µg/mL
O=C(Nc1ccccc1)NC1C[C@@H]2CN(c3ccc(N4C[C@H](Cn5ccnn5)OC4=O)cc3F)C[C@@H]2C1,,broth dilution / resazurin,MIC,,H37Rv,4 µg/mL
COc1ccc2c(=O)n(-c3ccc(Cl)c(Cl)c3)c(=O)oc2c1,,,MIC,,CNCTC MY331/88,8 µM
COc1ccc(C2C(=O)c3ccc(OC)cc3OC2c2ccccc2)cc1,,BACTEC,inhibition,12.5 µg/mL,H37Rv,-11%
Cc1ccc2c(=O)n(-c3cccc(F)c3)c(=O)oc2c1,,,MIC,,CNCTC MY331/88,16 µM
C=C1C(=O)OCC1(C(=O)OCC)C(=O)OCC,,BACTEC,inhibition,12.5 µg/mL,H37Rv,17%
Cc1ccc(-n2c(=O)oc3ccc(Br)cc3c2=O)cc1,,,MIC,,CNCTC MY331/88,16 µM
OCCN1CCN(CC/C=C2\c3ccccc3Sc3ccc(C(F)(F)F)cc32)CC1,,,MIC,,ST. 5,6.25 µg/mL
Oc1cc(CNC2CCCCC2)ccc1Oc1ccc(Cl)cc1Cl,InhA overexpression,MTT,MIC,,mc4914,12.5 µg/mL
NC(=O)CSc1ncnc2c1cnn2CCCCO,,,MIC,,H37Rv,>6.25 µg/mL
C[Si](C)(C)c1cc(-c2ccc(Oc3ccc(Cl)cc3Cl)c(O)c2)no1,,MTT,MIC,,H37Rv,100 µg/mL
NC1NN=C2N=C(CC(=O)c3ccccc3)C(CC(=O)c3ccccc3)=NN21,,BACTEC,inhibition,12.5 µg/mL,H37Rv,17%
N#Cc1ccn2c(-c3ccccc3)c(-c3ccccc3)c(C(O)c3ccccc3)c2c1,,,EC50,,H37Rv,<6.25 µg/mL
COc1cc2c(cc1OC)[C@@H](Cc1ccc(Oc3cc(C[C@@H]4c5cc(OC)c(OC)cc5CCN4C)ccc3O)cc1)N(C)CC2,,BACTEC,MIC bound,,H37Rv,>128 µg/mL
CC(Sc1ncnc2c1cnn2CCCCO)C(N)=O,,,MIC,,H37Rv,>6.25 µg/mL
O=c1oc2cc(Cl)ccc2c(=O)n1-c1ccccc1,,,MIC,,CNCTC MY331/88,16 µM
Cn1c(=O)ccc2c(=O)c3c(ccc4ccccc43)oc21,,BACTEC,inhibition,12.5 µg/mL,H37Rv,0%
CCOC(=O)c1ccc(-n2c(=O)oc3ccc(Cl)cc3c2=O)cc1,,,MIC,,CNCTC MY331/88,16 µM
CCc1cc(C(N)=S)ccn1,,,MIC,,,2 µg/mL
OCCN1CCN(CC/C=C2\c3ccccc3Sc3ccc(Cl)cc32)CC1,,,MIC,,ST. 5,12.5 µg/mL
Cn1c(C(N)=S)nc2ncccc21,,,MIC,,H37Rv,125 µg/mL
Nc1nc(-c2cccc([N+](=O)[O-])c2)c(N=Nc2ccc(Br)cc2)s1,,BACTEC,MIC bound,,H37Rv,>6.25 µg/mL
NC1C[C@@H]2CN(c3ccc(N4C[C@H](Cn5ccnn5)OC4=O)cc3F)C[C@@H]2C1,,broth dilution / resazurin,MIC,,H37Rv,2 µg/mL
CCCCc1cn(Cc2ccc(Oc3ccc(Cl)cc3Cl)c(O)c2)nn1,,MTT,MIC,,H36Rv,0.6 µg/mL
NC(=O)c1nc(-c2ccccc2)c(-c2ccccc2)[nH]c1=O,,BACTEC,inhibition,12.5 µg/mL,H37Rv,6%
CCN(CC)Cc1c2c(O)c3c(O)c(C)c4c(c3c1O)C(=O)[C@@](C)(O/C=C/[C@H](OC)[C@@H](C)[C@@H](O)[C@H](C)[C@H](O)[C@H](C)[C@@H](O)[C@@H](C)/C=C/C=C(/C)C(=O)N2)O4,,,MIC,,,2 µg/mL
Cn1c(C(N)NO)nc2ncccc21,,,MIC,,H37Rv,250 µg/mL

A second listing of 5 rows from above:

smiles	mutations	method	read-out	tested at	strain or isolate	value
Cn1c(=O)ccc2c(=O)c3c(ccc4ccccc43)oc21		BACTEC	inhibition	12.5 µg/mL	H37Rv	0%
O=C(Nc1ccccc1)c1ccc(Oc2ccc(Cl)cc2Cl)c(O)c1		MTT	MIC		H37Rv	>100 µg/mL
COc1cc2c(cc1OC)[C@@H](Cc1ccc(Oc3cc(C[C@@H]4c5cc(OC)c(OC)cc5CCN4C)ccc3O)cc1)N(C)CC2		BACTEC	MIC bound		H37Rv	>128 µg/mL
Cc1ccc(-n2c(=O)oc3ccc(Br)cc3c2=O)cc1			MIC		CNCTC MY331/88	16 µM
Oc1cc(Cl)ccc1Oc1ccc(Cn2ccnn2)cc1Cl	InhA overexpression	MTT	MIC		mc4914	100 µg/mL